According to patent US4129577A (priority 1977, dated 1978):

System: pigeons
Test: Vomiting in pigeons (oral TD50)

## 3-hydroxy-4,15-diacetoxy-12,13-epoxy-Δ^9 -trichothecene
  vomiting: cause vomiting

## 3-hydroxy-4,15-diacetoxy-8-(3-methyl butyryloxy)-12,13-epoxy-Δ^9 -trichothecene
  vomiting: cause vomiting
